Results of unrelated studies side by side (data: NIAID ChemDB).

Common to all: whole-cell or culture tests; organism: Mycobacterium tuberculosis

Percent inhibition refers to the dose given; in toxicity tests it is the harm to the cells. ECn is the concentration giving n% inhibition of infection, replication or growth. Neighbouring rows are from separate reports. MIC bound: limit read from a one-dose screen. A number after MIC or MFC names an inhibition level or a share of isolates. Two numbers with a dash give a range or band. An empty or dashed field is not shown.

compound,strain,cells,read by,read-out,tested at,value
CC1COc2c(N3CCN(C)CC3)c(F)cc3c(=O)c(C(=O)O)cn1c23,900240,,,MIC,,0.5 µg/mL
CCCCCNC(=O)c1csc(-c2csc(CCNC(C)=O)n2)n1,H37Rv,,BACTEC,MIC,,≥12.8 µg/mL
CO[C@H]1/C=C/O[C@@]2(C)Oc3c(C)c(O)c4c(O)c(c5[nH]c(N6CCCCC6)nc5c4c3C2=O)NC(=O)/C(C)=C\C=C\[C@H](C)[C@H](O)[C@@H](C)[C@@H](O)[C@@H](C)[C@H](OC(C)=O)[C@@H]1C,H37Rv,,,MIC,,0.005 µg/mL
COC(=O)C1(N2CCOCC2)CCC(C(c2ccccc2)C(C)[N+](=O)[O-])C1,H37Rv,,BACTEC,inhibition,12.5 µg/mL,1%
Cc1ccc(O)c(C(=O)Nc2ccc(C#N)cc2)c1,CNCTC MY331/88,,,MIC,,1000 µM
CC[S+](C)c1ccc(-c2c3nc(c(-c4ccc([S+](C)CC)cc4)c4ccc([nH]4)c(-c4ccc([S+](C)CC)cc4)c4nc(c(-c5ccc([S+](C)CC)cc5)c5ccc2[nH]5)C=C4)C=C3)cc1.[O-][Cl+3]([O-])([O-])[O-].[O-][Cl+3]([O-])([O-])[O-].[O-][Cl+3]([O-])([O-])[O-].[O-][Cl+3]([O-])([O-])[O-],H37Rv,,BACTEC,MIC bound,,>12.5 µg/mL
O=C(Nc1cccc([N+](=O)[O-])c1)c1cc(Br)ccc1O,CNCTC MY331/88,,,MIC,,8 µM
CC1(C)CCC[C@]2(C)[C@@H]1CC[C@]1(O)CC(=O)CC[C@H]12,,,resazurin,MIC,,6.25 µg/mL
COC(=O)[C@H]1[C@H](O)[C@H](C)[C@@H](O)[C@@H](C)/C=C(\C)C2=C3C(=C(C)C(=O)c4c(O)c(c(C)c(OC(C)=O)c43)NC(=O)/C(C)=C/C=C\[C@@H](C)C(O)[C@@H](C)[C@H]1O)OCO2,INH-r,,,MIC,,0.8 µg/mL
O=C(NN1CCN(c2cc3c(cc2F)c(=O)c(C(=O)O)cn3C2CC2)CC1)c1ccc(Br)cc1,H37Rv,,fluorescence,MIC90,,>50 µM
O=C(Cc1cccs1)N/N=C/c1ccc(O)c(O)c1,H37Rv (ATCC 27294),,resazurin,MIC,,361.9 µM
COc1c2c3c(ccnc3c3ccccc13)C(=O)N2C,H37Rv,,BACTEC,MIC,,12.5 µg/mL
O=C(Cc1cccs1)N/N=C/c1ncc[nH]1,H37Rv (ATCC 27294),,resazurin,MIC,,>100 µg/mL
O=C(c1ccncc1)N1CCC(NS(=O)(=O)c2ccc(-n3cccn3)cc2)CC1,,,,MIC,,6.3 µM
CCc1c2c(nc3ccc(OC(=O)N4CCC(N5CCCCC5)CC4)cc13)-c1cc3c(c(=O)n1C2)COC(=O)[C@]3(O)CC.Cl,H37Rv,,BACTEC,inhibition,12.5 µg/mL,0%
CC[C@@H](CO)NCCN[C@@H](CC)CO,H37Rv,,,MIC,,1 µg/mL
O=C1NC(=S)N/C1=C/c1cccc(Br)c1,H37Rv,,BACTEC,inhibition,6.25 µg/mL,85%
Cc1c(C(=O)O)nn(-c2ccccc2Cl)c1-c1ccc(Cl)cc1,H37Rv,,agar,MIC90,,25 µg/mL
CO[C@H]1/C=C/O[C@@]2(C)Oc3c(C)c(O)c4c(O)c(c5[nH]c(N(C)C)nc5c4c3C2=O)NC(=O)/C(C)=C\C=C\[C@H](C)[C@H](O)[C@@H](C)[C@@H](O)[C@@H](C)[C@H](OC(C)=O)[C@@H]1C,H37Rv,,,MIC,,0.0025 µg/mL
O=C(O)c1cn(C2CC2)c2cc(N3CCN(Nc4ccc(F)cc4)CC3)c(F)cc2c1=O,H37Rv,,fluorescence,MIC90,,5.41 µM
NNC(=O)c1ccncc1,90-0216 (DRUG-SUS),,,MIC,,0.02 µg/mL
O=C[C@H](O)[C@@H](O)[C@H](O)[C@H](O)CO[C@H]1O[C@H](CO)[C@H](O)[C@H](O)[C@H]1O,H37Rv,,,inhibition,6.25 µg/mL,-3%
CC1(C)C2CC3OB(C[C@@H](Cc4ccccc4)NC(=O)[C@@H](N)CCCN=C(N)N)O[C@]3(C)C1C2,H37Rv,,agar,MIC,,≤50 µg/mL
Cc1c(C(=O)O)nn(-c2ccc(Cl)cc2Cl)c1-c1ccccc1,H37Rv,,agar,MIC90,,6.25 µg/mL
C[C@H](N)C(=O)N[C@@H](CB1OC2CC3CC(C3(C)C)[C@@]2(C)O1)c1ccccc1,H37Rv,,,MIC,,≤500 µg/mL
O=C1NC(=S)NC1=C1CCCCC1,H37Rv,,BACTEC,EC50,,>6.25 µg/mL
Cc1cc(=O)c2ccc3c(c2[nH]1)Oc1ccc2c(=O)cc(C)[nH]c2c1O3,H37Rv,,BACTEC,inhibition,12.5 µg/mL,80%
COc1nn(-c2cccc(Oc3ccccc3)c2)c(=O)o1,,,,MIC99,,>20 µg/mL
NC(=O)c1ccc(N)nc1,H37Rv,,BACTEC,MIC bound,,>12.5 µg/mL
C[C@@]12CCC[C@@](C)(C(=O)O)[C@H]1CC[C@]13CC(=O)[C@@H](CC[C@H]12)C3,,,resazurin,MIC,,100 µg/mL
COC(=O)c1ccc(/C=C2/NC(=S)NC2=O)cc1,H37Rv,,BACTEC,inhibition,6.25 µg/mL,8%
COc1ccc(NC(=O)c2ccc(OC)cc2O)cc1,CNCTC MY331/88,,,MIC,,8 µM
C=C1CCCC2[C@@]1(C)CC[C@H](C)[C@@]2(C)Cc1cc(O)ccc1O,H37Rv,,BACTEC,inhibition,12.5 µg/mL,4%
Cc1ccc(/C=N/NC(=O)Cc2cccs2)c(O)c1,H37Rv (ATCC 27294),,resazurin,MIC,,364.5 µM
CCC(C)N(c1nc2c([nH]1)c1c(O)c3c(O)c(C)c4c(c32)C(=O)[C@@](C)(O/C=C/[C@H](OC)[C@@H](C)[C@@H](OC(C)=O)[C@H](C)[C@H](O)[C@H](C)[C@@H](O)[C@@H](C)/C=C/C=C(/C)C(=O)N1)O4)C(C)CC,H37Rv,,,MIC,,0.01 µg/mL
NCC[C@H](O)C(=O)N[C@@H]1C[C@H](N)[C@@H](O[C@H]2O[C@H](CN)[C@@H](O)[C@H](O)[C@H]2O)[C@H](O)[C@H]1O[C@H]1O[C@H](CO)[C@@H](O)[C@H](N)[C@H]1O,90-0216 (DRUG-SUS),,,MIC,,0.5 µg/mL
C=CCOc1cccc(/C=C2/NC(=S)NC2=O)c1,H37Rv,,BACTEC,EC50,,<6.25 µg/mL
O=C(O)CN(CC(=O)O)Cc1cc2c(cc1O)Oc1cc(O)c(CN(CC(=O)O)CC(=O)O)cc1C21OC(=O)c2ccccc21,H37Rv,,BACTEC,inhibition,12.5 µg/mL,3%
Cc1cccc(/C=C2/NC(=S)NC2=O)c1,H37Rv,,BACTEC,EC50,,<6.25 µg/mL
CO[C@H]1/C=C/O[C@@]2(C)Oc3c(C)c(O)c4c(O)c(c(/C=N/N5CCN(C)CC5)c(O)c4c3C2=O)NC(=O)/C(C)=C\C=C\[C@H](C)[C@H](O)[C@@H](C)[C@@H](O)[C@@H](C)[C@H](OC(C)=O)[C@@H]1C,H37Rv,,agar,MIC,,1.56 µg/mL
Cc1c(-c2ccc(O)cc2)n(CCCCCCNCCOC(=O)NCCCc2ccc(N(CCCl)CCCl)cc2)c2ccc(O)cc12,,,BACTEC,inhibition,6.25 µg/mL,24%
O=C1NC(=S)N/C1=C/c1ccccc1Cl,H37Rv,,BACTEC,inhibition,6.25 µg/mL,20%
COc1c2occc2c(OC)c2c(C)c(C(=O)OCCN3CCOCC3)oc12,H37Rv,,BACTEC,inhibition,12.5 µg/mL,20%
COCCN(C1CCN(CC2C=[N+](Cc3ccccc3)c3c(C)cccc32)C1)S(C)(=O)=O,,,,MIC,,25 µM
COc1ccc2c(C)cc(N/N=C/c3ccc([N+](=O)[O-])o3)nc2c1,H37Rv,,BACTEC,inhibition,12.5 µg/mL,-6%
CCOCCN(CCOCC)c1nc2c([nH]1)c1c(O)c3c(O)c(C)c4c(c32)C(=O)[C@@](C)(O/C=C/[C@H](OC)[C@@H](C)[C@@H](OC(C)=O)[C@H](C)[C@H](O)[C@H](C)[C@@H](O)[C@@H](C)/C=C/C=C(/C)C(=O)N1)O4,H37Rv,,,MIC,,0.01 µg/mL
C[C@H]1COC2(CCN(c3nc(=O)c4cc(C(F)(F)F)cc([N+](=O)[O-])c4s3)CC2)O1,H37Rv,,,MIC,,0.003–0.006 µM
CCCCn1c(O)c(/C=C2\C=Nc3ccccc32)sc1=O,H37Rv,,BACTEC,MIC bound,,>12.5 µg/mL
O=C1NC(=S)N/C1=C/c1cccc2ccccc12,H37Rv,,BACTEC,inhibition,6.25 µg/mL,16%
O=C(NN1CCN(c2cc3c(cc2F)c(=O)c(C(=O)O)cn3C2CC2)CC1)c1ccc(C(F)(F)F)cc1,H37Rv,,fluorescence,MIC90,,>50 µM
CC(C)=NNC(=O)c1cccnc1,H37Rv,,BACTEC,MIC bound,,>12.5 µg/mL
C=C1CC[C@@H]2C(C)(C)CCC[C@@]2(C)[C@@H]1CC/C(C)=C/C(=O)O,,,resazurin,MIC,,125 µg/mL
O=C(O)c1cn(C2CC2)c2cc(N3CCN(/N=C/c4ccc([N+](=O)[O-])cc4)CC3)c(F)cc2c1=O,H37Rv,,fluorescence,MIC90,,8.85 µM
CC1(C)C2CC3OB(C[C@@H](Cc4ccccc4)NC(=O)[C@@H](N)CCCCN)O[C@]3(C)C1C2,H37Rv,,,MIC,,≤5 µg/mL
Cc1c(C(=O)O)nn(-c2ccc(F)cc2F)c1-c1ccc(Cl)cc1,H37Rv,,agar,MIC90,,6.25 µg/mL
O=C(Cc1cccs1)N/N=C/c1ccc([N+](=O)[O-])cc1,H37Rv (ATCC 27294),,resazurin,MIC,,>100 µg/mL
Cc1cccc2c1N=C(c1ccccc1)C2CN1CCC(NS(=O)(=O)C(C)C)C1,,,,MIC,,3.12 µM
N#Cc1ccc(NC(=O)c2cc(Br)ccc2O)cc1,CNCTC MY331/88,,,MIC,,4 µM
COc1ccc(C(=O)NN2CCN(c3cc4c(cc3F)c(=O)c(C(=O)O)cn4C3CC3)CC2)cc1,H37Rv,,fluorescence,MIC90,,>50 µM
Cc1cc(-n2cccn2)cnc1S(=O)(=O)NC1CCN(Cc2ccncc2)CC1,,,,MIC,,6.25 µM
C[C@H]1NCc2cc(-c3ccc4c(=O)c(C(=O)O)cn(C5CC5)c4c3OC(F)F)ccc21,10 strains,,,MIC90,,1 µg/mL
O=C(Cc1cccs1)N/N=C/c1ccc(O)cc1O,H37Rv (ATCC 27294),,resazurin,MIC,,361.9 µM
CC1(C)C2CC3OB(C[C@@H](Cc4ccccc4)NC(=O)[C@@H](N)Cc4c[nH]c5ccccc45)O[C@]3(C)C1C2,H37Rv,,,MIC,,≤50 µg/mL
CC1(C)Oc2cc3oc(C(=O)O)cc(=O)c3cc2-c2ccccc21,H37Rv,VERO,BACTEC,MIC,,>12.5 µg/mL
Cc1ccc(C(=O)Nc2ccc(Cl)c(Cl)c2)c(O)c1,CNCTC MY331/88,,,MIC,,4 µM
CC(C)=CCC1=C(O)[C@@](O)(CC=C(C)C)C(=O)C(C(=O)CC(C)C)=C1O,H37Rv,,BACTEC,MIC,,≥12.8 µg/mL
Cc1c(C(=O)O)nn(-c2ccccc2)c1-c1ccc(Cl)cc1,H37Rv,,agar,MIC90,,12.5 µg/mL
CCCCN(CCCC)c1nc2c([nH]1)c1c(O)c3c(O)c(C)c4c(c32)C(=O)[C@@](C)(O/C=C/[C@H](OC)[C@@H](C)[C@@H](OC(C)=O)[C@H](C)[C@H](O)[C@H](C)[C@@H](O)[C@@H](C)/C=C/C=C(/C)C(=O)N1)O4,H37Rv,,,MIC,,0.01 µg/mL
COc1ccc(NC(=O)/C(=N/NC(=O)C[n+]2ccccc2)c2c(O)c3ccc(O)cc3oc2=O)c([N+](=O)[O-])c1.[Cl-],H37Rv,,BACTEC,inhibition,12.5 µg/mL,0%
O=C(O)c1cn(C2CC2)c2cc(N3CCN(/N=C/c4ccc(C(F)(F)F)cc4)CC3)c(F)cc2c1=O,H37Rv,,fluorescence,MIC90,,28.28 µM
CO[C@H]1/C=C/O[C@@]2(C)Oc3c(C)c(O)c4c(O)c(c(/C=N/N5CCN(C)CC5)c(O)c4c3C2=O)NC(=O)/C(C)=C\C=C\[C@H](C)[C@H](O)[C@@H](C)[C@@H](O)[C@@H](C)[C@H](OC(C)=O)[C@@H]1C,H37Rv,,,MIC,,0.4 µg/mL
CN(c1ccc(F)cc1)N1CCN(c2cc3c(cc2F)c(=O)c(C(=O)O)cn3C2CC2)CC1,H37Rv,,fluorescence,MIC90,,>50 µM
Cc1ccc(C)c(/C=C2/NC(=S)NC2=O)c1,H37Rv,,BACTEC,inhibition,6.25 µg/mL,52%
CC1=CC(=O)c2c(O)cccc2C1=O,H37Rv (ATCC 27294),,,MIC,,4.88 µg/mL
Clc1nn2ccnc2c2cccnc12,H37Rv,,BACTEC,MIC bound,,>12.5 µg/mL
CN(C)c1ccc(NC(=O)c2cc(F)ccc2O)cc1,CNCTC MY331/88,,,MIC,,31 µM
CCn1cc(C(=O)O)c(=O)c2cc(F)c(N3CCNCC3)cc21,21 strains,,,MIC50,,4 µg/mL
O=C(Cc1cccs1)N/N=C/c1cc(O)ccc1O,H37Rv (ATCC 27294),,resazurin,MIC,,>100 µg/mL
NCCCC[C@H](N)C(=O)N[C@@H](CB(O)O)Cc1ccccc1,H37Rv,,,MIC,,≤50 µg/mL

The last 8 rows once more:

| compound | strain | cells | read by | read-out | tested at | value |
|---|---|---|---|---|---|---|
| CN(c1ccc(F)cc1)N1CCN(c2cc3c(cc2F)c(=O)c(C(=O)O)cn3C2CC2)CC1 | H37Rv |  | fluorescence | MIC90 |  | >50 µM |
| Cc1ccc(C)c(/C=C2/NC(=S)NC2=O)c1 | H37Rv |  | BACTEC | inhibition | 6.25 µg/mL | 52% |
| CC1=CC(=O)c2c(O)cccc2C1=O | H37Rv (ATCC 27294) |  |  | MIC |  | 4.88 µg/mL |
| Clc1nn2ccnc2c2cccnc12 | H37Rv |  | BACTEC | MIC bound |  | >12.5 µg/mL |
| CN(C)c1ccc(NC(=O)c2cc(F)ccc2O)cc1 | CNCTC MY331/88 |  |  | MIC |  | 31 µM |
| CCn1cc(C(=O)O)c(=O)c2cc(F)c(N3CCNCC3)cc21 | 21 strains |  |  | MIC50 |  | 4 µg/mL |
| O=C(Cc1cccs1)N/N=C/c1cc(O)ccc1O | H37Rv (ATCC 27294) |  | resazurin | MIC |  | >100 µg/mL |
| NCCCC[C@H](N)C(=O)N[C@@H](CB(O)O)Cc1ccccc1 | H37Rv |  |  | MIC |  | ≤50 µg/mL |